Record: PubChem BioAssay AID624099 (ICCB-Longwood, 2012)

Aim: 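Host factors E2 relies on to silence an HPV18 LCR reporter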 (primary screen)
Cell system: human C33A cervical carcinoma cells (HPV-negative) stably expressing BPV1 E2 and an HPV18 LCR luciferase reporter
Knock-down reagent: siRNA pool against human genes, 40 nM
Time to read-out: 72 h
Measured: 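Per-well luciferase luminescence, z-scored on each plate against the plate mean and SD with control wells left out, then averaged across three replicate plates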
Scale: mean z-score and z-score: higher = stronger reporter signal, weaker E2 silencing
Active means: 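Hit if mean z-score reaches 2 and two or more of three replicate z-scores also reach 2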
The whole screen tested about 21,000 reagents; below is an unselected part. Of all reagents, 497 (2.4%) were called active. 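Higher z means weaker E2 silencing; only reporter increases were scored, and knock-downs that hurt cell survival may mask genuine repressor factors.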

| Gene | mean z-score | z-score, replicate A | z-score, replicate B | z-score, replicate C | call |
| --- | --- | --- | --- | --- | --- |
| MOG | -0.39 | -0.5 | -0.37 | -0.31 | inactive |
| CAMLG | 0.43 | 0.38 | 0.52 | 0.4 | inactive |
| SPOCK3 | -0.12 | -0.51 | 0.14 | 0 | inactive |
| PLS3 | 0.5 | 0.26 | 0.67 | 0.59 | inactive |
| SLPI | 1.85 | 2.08 | 1.62 | 1.87 | inactive |
| OR1N1 | 0.99 | 0.68 | 1.08 | 1.22 | inactive |
| RACK1 | 1.42 | 1.33 | 1.58 | 1.36 | inactive |
| TSPO2 | -0.09 | -0.17 | -0.01 | -0.45 | inactive |
| HDAC6 | 0.53 | 0.81 | 0.43 | 0.35 | inactive |
| N4BP2L1 | -0.79 | -0.71 | -0.84 | -0.82 | inactive |
| HSBP1 | 0.25 | 0.68 | 0.05 | 0.01 | inactive |
| SLC18A3 | 0.37 | 0.45 | 0.53 | 0.13 | inactive |
| CEP85L | 0.74 | 0.9 | 0.76 | 0.57 | inactive |
| CXCR3 | -0.34 | -0.06 | -0.59 | -0.39 | inactive |
| SNX10 | -0.87 | -0.9 | -0.72 | -1 | inactive |
| ST6GALNAC2 | 1.51 | 1.46 | 1.65 | 1.43 | inactive |
| RWDD1 | 0.08 | 0.12 | -0.09 | 0.2 | inactive |
| DKK3 | 0.01 | 0.14 | 0.22 | -0.34 | inactive |
| PROSER3 | 1.9 | 1.75 | 2.1 | 1.86 | inactive |
| IL37 | -0.11 | 0.15 | -0.23 | -0.24 | inactive |
| EPX | -0.21 | -0.08 | -0.23 | -0.31 | inactive |
| CACNG1 | 0.36 | 0.74 | 0.4 | -0.04 | inactive |
| SHTN1 | 0.68 | 0.7 | 0.72 | 0.62 | inactive |
| BNIP5 | -0.12 | 0.24 | -0.16 | -0.45 | inactive |
| SMURF2 | -1.39 | -1.17 | -1.52 | -1.47 | inactive |
| CYP39A1 | -1.94 | -1.1 | -1.82 | -2.9 | inactive |
| LOC197317 (retired record) | 0.48 | 0.62 | 0.6 | 0.23 | inactive |
| LOC345711 (retired record) | -0.25 | 0.13 | -0.48 | -0.4 | inactive |
| BCKDHB | 1 | 1.13 | 0.95 | 0.91 | inactive |
| NDUFV2 | 1.89 | 1.74 | 2.51 | 1.43 | inactive |
| IL5RA | 0.13 | 0.15 | 0.14 | 0.09 | inactive |
| PPP1CC | -0.35 | -0.42 | -0.37 | -0.25 | inactive |
| PHF1 | 2.11 | 2.1 | 2.36 | 1.88 | active |
| RDH14 | 0.95 | 0.97 | 1.02 | 0.87 | inactive |
| BTN2A2 | -0.45 | -0.38 | -0.5 | -0.47 | inactive |
| LEO1 | 0.28 | 0.18 | 0.38 | 0.3 | inactive |
| IGSF5 | -0.1 | 0.78 | -2.01 | 0.92 | inactive |
| SOAT1 | 0.35 | 0.17 | 0.47 | 0.41 | inactive |
| C10orf55 | -0.8 | -0.81 | -0.89 | -0.71 | inactive |
| RBCK1 | -0.2 | -0.09 | -0.29 | -0.22 | inactive |
| IRX5 | -0.39 | -0.54 | -0.51 | -0.12 | inactive |
| KMT2D | -1.22 | -1.1 | -1.45 | -1.11 | inactive |
| SLC26A3 | -1.75 | -1.61 | -1.78 | -1.86 | inactive |
| SRARP | 0.03 | -0.5 | 0.38 | 0.21 | inactive |
| SLC25A43 | 0.07 | 0.09 | 0.08 | 0.04 | inactive |
| COL5A3 | 0 | 0.46 | -0.32 | -0.14 | inactive |
| TCHHL1 | 0.8 | 1.11 | 0.49 | 0.81 | inactive |
| FLJ45684 (retired record) | 0.06 | 0.24 | -0.06 | 0 | inactive |
| TMEM178A | -0.87 | -0.64 | -0.9 | -1.05 | inactive |
| RAB3GAP2 | 0.25 | 0.44 | 0.21 | 0.09 | inactive |
| COPS3 | 0.09 | 0.03 | 0.19 | 0.03 | inactive |
| BCL11A | -0.31 | -0.14 | -0.37 | -0.43 | inactive |
| SERBP1 | 0.3 | 0.44 | 0.2 | 0.25 | inactive |
| PAMR1 | 0.48 | 0.14 | 0.5 | 0.81 | inactive |
| GCG | 0.96 | 0.67 | 0.85 | 1.37 | inactive |
| PHF5A | -2.84 | -3.13 | -2.59 | -2.81 | inactive |
| LOC151273 (retired record) | 0.36 | 0.61 | 0.14 | 0.32 | inactive |

A few values from the list:
For “call”, CAMLG has inactive
Entry of PLS3 in “call”: inactive
FLJ45684 (retired record), z-score, replicate C → 0
TMEM178A, call = inactive
